Experimental data: ChEMBL document CHEMBL5150021, “Identification of 5-(Aryl/Heteroaryl)amino-4-quinolones as Potent Membrane-Disrupting Agents to Combat Antibiotic-Resistant Gram-Positive Bacteria” (J Med Chem, 2022)

Tested on: Staphylococcus aureus
Test: Induction of drug resistance in Staphylococcus aureus FPR3757 assessed as fold increase in MIC incubated for 65 days relative to control
Type: functional
Conditions: time 65.0 day

Structure (SMILES): FC(F)(F)c1ccc(Nc2cc(C(F)(F)F)nc3cc(C(F)(F)F)ccc23)nc1
- fold change (FC): 2
